# Laboratory results: patent US20260259169A1, “BETA-LACTAMASE SUBSTRATE COMPOUNDS AND ELECTROCHEMICAL DETECTION METHODS USING THEM” (priority 2023, published 2026)
# Test system: beta-lactamases
# Experiment: Cyclic voltammetry in the presence and absence of beta-lactamases
# Assay type: biochemical
# Conditions: 1 entire voltage cycle; signal only in positive samples
smiles,measurement,value
CC(C)(ON=C(C(=O)NC1C(=O)N2C(C(=O)O)=C(C=Cc3ccc(C#N)cc3[N+](=O)[O-])CSC12)c1csc(N)n1)C(=O)O (stereo not shown) [2-nitro-4-cyano],potential of the oxidation signal specific for the presence of beta-lactamases,+0.3 V vs. Ag/AgCl
